Reference: PubChem BioAssay AID504761 (Drosophila RNAi Screening Center, 2011)
Aim: 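Insect host genes that dengue virus relies on to spread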 (primary screen). System: D.Mel-2 cells from Drosophila. Knock-down reagent: long dsRNA against Drosophila genes. Treatment: infection with dengue virus type 2; dose and infection time not stated. Measurement: 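Per well on two replicate plates, imaging gave the percent of cells positive for viral envelope protein, ranked by infection, and a nuclear count of cells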. Direction: infection score: higher = more virus-infected cells; cell count: higher = more cells in the well. Active means: 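Very low infection ranking in both replicate wells (chance probability at most 0.065), then a retest showing infection dropped 1.5-fold or more at p below 0.05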. Meaning of the calls: active = confirmed: knock-down lowers infection; inactive = not picked or not confirmed.
The deposit covers about 22,000 reagents; shown is a random part of those that have a named target and a result. In the full data, 116 (0.52%) are marked active. 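Calls depend on retest data that are not deposited; infection was ranked per plate without normalising between plates; the unit of the infection score is not given.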 Raw values vary from plate to plate and are shown uncorrected. The numbers tell different reagents against one gene apart. Names joined by + are all predicted targets of the reagent. Reagent sequences are not shown. Not given: the amount of reagent, the time to read-out.

target gene,dsRNA no.,"infection score, replicate 1","infection score, replicate 2","cell count, replicate 1","cell count, replicate 2",activity call
CG6497 (GeneID 39924),1,2.63,0.66,6005,6677,inactive
CG6497 (GeneID 39924),2,3.27,2.47,6633,7208,inactive
CG6497 (GeneID 39924),3,10.1,7.83,4107,5581,inactive
CG14406 (GeneID 32421),1,12.6,17,6391,6504,inactive
jeb (GeneID 36295),1,3.52,7.56,6675,5635,inactive
jeb (GeneID 36295),2,5.33,25.1,6814,5223,inactive
jeb (GeneID 36295),3,5.9,11.3,6827,6376,inactive
ClpP (GeneID 34402),1,4.85,14.4,6823,6040,inactive
Tfb5 + CG31917,1,12,0.25,3573,397,inactive
CG13724 (GeneID 39927),1,1.49,1.7,6234,6284,inactive
CG13724 (GeneID 39927),2,10,19.2,4821,4940,inactive
CG10431 (GeneID 35157),1,4.2,4.75,5787,6612,inactive
CG2528 (GeneID 35435),1,4.1,1.95,6558,6610,inactive
GstE10 (GeneID 37105),1,,15.1,486,4635,inactive
GstE10 (GeneID 37105),2,16.9,15.9,3333,2958,inactive
wge (GeneID 42687),1,6.55,2.88,6552,6482,inactive
wge (GeneID 42687),2,0.64,8.3,5755,5987,inactive
MBD-R2 (GeneID 41498),1,13.2,3.98,3874,5299,inactive
Mkp3 (GeneID 40081),1,12,8.53,5410,6718,inactive
Mkp3 (GeneID 40081),2,4.06,24.3,5373,4723,inactive

Continued; the last 5 above are carried over.
target gene,dsRNA no.,"infection score, replicate 1","infection score, replicate 2","cell count, replicate 1","cell count, replicate 2",activity call
wge (GeneID 42687),1,6.55,2.88,6552,6482,inactive
wge (GeneID 42687),2,0.64,8.3,5755,5987,inactive
MBD-R2 (GeneID 41498),1,13.2,3.98,3874,5299,inactive
Mkp3 (GeneID 40081),1,12,8.53,5410,6718,inactive
Mkp3 (GeneID 40081),2,4.06,24.3,5373,4723,inactive
CG7402 (GeneID 39994),1,1.96,0.68,6632,6436,inactive
Crys (GeneID 34604),1,12.9,13.5,6473,5911,inactive
Crys (GeneID 34604),2,0.94,0.53,5973,6235,inactive
Bx42 (GeneID 31840),1,17.1,33.1,1536,1614,inactive
Bx42 (GeneID 31840),2,30.4,33.3,2852,6080,inactive
CG7130 (GeneID 40450),1,6.88,6.59,6151,6271,inactive
Egfr (GeneID 37455),1,1.45,7.21,5453,5491,inactive
Egfr (GeneID 37455),2,17.6,42.7,6885,5082,inactive
CG4119 (GeneID 31481),1,2.38,2.41,5117,5262,inactive
CG4119 (GeneID 31481),2,35.4,37.9,3412,2963,inactive
MAN1 (GeneID 37838),1,11.7,36,6520,4937,inactive
CG5001 (GeneID 33308),1,6.6,1.8,6594,6607,inactive
CG5001 (GeneID 33308),2,22.7,12.2,3866,5275,inactive
crq (GeneID 33219),1,24.5,1.63,5006,7035,inactive
Prosalpha3T (GeneID 43679),1,5.38,1.6,2750,7017,inactive
CG7239 (GeneID 33809),1,1.02,2.82,6069,7017,inactive
CG11356 (GeneID 32178),1,4.44,5.7,6801,7056,inactive
CG10919 (GeneID 40917),1,5.14,11.3,6441,6518,inactive
ReepA (GeneID 37643),1,15,12.2,6619,6567,inactive
ReepA (GeneID 37643),2,6.44,13.8,5869,1258,inactive
ReepA (GeneID 37643),3,6.43,4.41,6296,6824,inactive
ReepA (GeneID 37643),4,9.19,13.3,5932,6163,inactive
